Reference: PubChem BioAssay AID504761 (Drosophila RNAi Screening Center, 2011)
Test: 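Insect host genes that dengue virus relies on to spread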 (primary screen). System: D.Mel-2 cells from Drosophila. Reagents: long dsRNA against Drosophila genes. Challenge: infection with dengue virus type 2; dose and infection time not stated. Measured: 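Per well on two replicate plates, imaging gave the percent of cells positive for viral envelope protein, ranked by infection, and a nuclear count of cells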. Direction: infection score: higher = more virus-infected cells. Call rule: 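Low infection ranks in the two replicates (chance level up to 0.065) followed by a retest with a 1.5-fold or larger significant decrease, p below 0.05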. Meaning of the calls: active = confirmed: knock-down lowers infection; inactive = not picked or not confirmed.
The deposit covers about 22,000 reagents; below is a random part of those with a known target gene and a result. Of all reagents, 116 (0.52%) were called active. 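Calls depend on retest data that are not deposited; infection was ranked per plate without normalising between plates; the unit of the infection score is not given.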 A plus sign joins genes that one reagent is predicted to hit. Further read-outs or replicates are left out here. The record does not give: the amount of reagent, the time to read-out.

infection score, replicate 1, by gene and reagent
CG7065: DRSC18420 1.17 inactive; DRSC25280 3.35 inactive
CG14314: DRSC14793 2.55 inactive
CG31760: DRSC02590 1.72 inactive; DRSC27108 32.1 inactive
wun2 (wunen-2): DRSC07566 3.18 inactive
CG32487: DRSC21745 8.25 inactive; DRSC29078 27.2 inactive
Cdc42 (Cell division cycle 42): DRSC20228 13.5 inactive; DRSC25134 12.7 inactive
CG11112: DRSC06038 6.37 inactive; DRSC25552 3.5 inactive
CG34342: DRSC09756 2.07 inactive; DRSC22515 0.88 inactive; DRSC24023 5.31 inactive
CG13042: DRSC09923 4.83 inactive; DRSC28618 26.1 inactive
CG4842: DRSC10453 1.04 inactive
pes (peste): DRSC03033 1.54 inactive; DRSC25954 6.63 inactive
nvd (neverland): DRSC22139 2.24 inactive; DRSC26328 2.3 inactive
VGlut (Vesicular glutamate transporter): DRSC00733 5.25 inactive; DRSC21821 8.73 inactive
beat-IIIc (beaten path IIIc): DRSC02438 5.54 inactive; DRSC02949 4.01 inactive
CG3795: DRSC18593 2.37 inactive; DRSC25687 3.34 inactive
CG15673: DRSC04263 6.39 inactive
Mdr65 (Multi drug resistance 65): DRSC11220 1.91 inactive
SppL (Signal peptide peptidase-like): DRSC15228 0.67 inactive

Ordered by “infection score, replicate 1” (ascending): 4 of the entries above
Gene	amplicon	infection score, replicate 1	call
CG34342	DRSC22515	0.88	inactive
CG34342	DRSC09756	2.07	inactive
CG11112	DRSC25552	3.5	inactive
CG11112	DRSC06038	6.37	inactive

The listing continues:
infection score, replicate 1, by gene and reagent
CG14232: DRSC19588 3.39 inactive; DRSC27714 19.3 inactive
Traf4 (TNF-receptor-associated factor 4): DRSC00445 1.7 inactive; DRSC00794 7.04 inactive
Ak2 (Adenylate kinase 2): DRSC04043 23.4 inactive
vex (vexed): DRSC19481 1.04 inactive; DRSC19651 1.39 inactive; DRSC21843 8.63 inactive; DRSC25475 3.32 inactive
Srrm234 (Serine-arginine repetitive matrix 2/3/4): DRSC07955 3.26 inactive; DRSC08606 5.06 inactive
CG4653: DRSC19909 5.76 inactive; DRSC22857 1.5 inactive; DRSC24329 3.14 inactive
CG9555: DRSC03264 7.4 inactive; DRSC25330 12.7 inactive
AhcyL1 (Adenosylhomocysteinase like 1): DRSC08647 0.84 inactive; DRSC25573 11.7 inactive
CG9231: DRSC11054 9.24 inactive
mei-217 + mei-218: DRSC20349 0.64 inactive
cv-2 (crossveinless 2): DRSC03861 1.8 inactive; DRSC04261 1.27 inactive
Cpr47Ec (Cuticular protein 47Ec): DRSC07332 18.1 inactive
CG4957: DRSC02793 0.62 active; DRSC29454 17.3 inactive
CG10681: DRSC09777 12 inactive; DRSC21484 1.03 inactive; DRSC27329 20.8 inactive
